In patent US20040121316A1 (priority 2002, published 2004):

Key:
[1] = system: mutant HIV-1 I50V #1 (M46I/I47V/I50V); type: cell-based; settings: EC50 of mutant M46I/I47V/I50V relative to wild type; class symbols
[2] = system: mutant HIV-1 I50V #2 (L10I/M46I/I50V); type: cell-based; settings: EC50 of mutant L10I/M46I/I50V relative to wild type; class symbols

Compound | I50V (#1) fold change [1] | I50V (#2) fold change [2]
Cc1cccc(C)c1OCC(=O)N[C@@H](Cc1ccccc1)[C@@H](O)C[C@H](Cc1ccccc1)NC(=O)[C@H](C(C)C)N1CCCNC1=O [Lopinavir, reference compound] | ++ (>10 to ≦30) | +++ (>30)
CCC[C@@]1(CCc2ccccc2)CC(O)=C([C@H](CC)c2cccc(NS(=O)(=O)c3ccc(C(F)(F)F)cn3)c2)C(=O)O1 [Tipranavir, reference compound] | − (≦3) | − (≦3)
